A mixed list of measured activities; the numbers were collected in NIAID ChemDB.

All rows: target-level tests; species: HIV-1; target: Integrase

Neighbouring rows are from separate reports. a–b is a range or a potency band. ICn is the concentration giving n% inhibition. Blank or dashed fields: not listed here.

| structure | method | strain or isolate | read-out | mutations | result |
|---|---|---|---|---|---|
| [N-]=[N+]=NC[C@H]1O[C@@H](n2cnc3c(NC(=O)Nc4ccccc4)ncnc32)[C@H](O)[C@@H]1CC(=O)O | 3′ processing | NL4-3 | IC50 | - | >10 µM |
| O=C(O)/C(O)=C/C(=O)N(CCc1ccncc1)Cc1ccc(F)cc1 | strand transfer | - | IC50 | - | <70 µM |
| O=C(/C=C/c1ccc(O)c(O)c1)OCCc1cccc(N=C=S)c1 | 3′ processing | - | IC50 | C56S | 23 µM |
| O=C(O)/C=C/c1ccc2c(c1)c(=O)c(/C(O)=C/C(=O)C(=O)O)cn2Cc1ccc(F)cc1 | strand transfer | - | IC50 | - | 0.03 µM |
| Cc1nnc(C(=O)N2CCC3(C2)OCCn2c3nc(C(=O)NCc3ccc(F)cc3)c(O)c2=O)o1 | binding / radiometric | - | Ki | - | 0.001–0.003 µM |
| CCN1C/C(=C\c2cc(O)c(O)c(O)c2)C(=O)/C(=C/c2cc(O)c(O)c(O)c2)C1 | 3′ processing | - | IC50 | - | 0.5 µM |
| Nc1ccn([C@@H]2O[C@H](COP(=O)(O)O)[C@@H](OP(=O)(O)OC[C@H]3OC[C@@H](n4cnc5c(N)ncnc54)[C@@H]3O)[C@H]2O)c(=O)n1 | strand transfer | - | IC50 | - | >300 µM |
| CC(C)(C)C(=O)c1cn2c(CO)cn(Cc3ccc(F)c(Cl)c3)c(=O)c2c(O)c1=O | ELISA | - | IC50 | - | <0.01 µM |
| O=C(/C=C/c1ccc(O)c(O)c1)Oc1ccc2c(N=C=S)cccc2c1 | 3′ processing | - | IC50 | - | 3 µM |
| O=C1/C(=C/c2cc(O)c(O)c(O)c2)CSC/C1=C\c1cc(O)c(O)c(O)c1 | disintegration | - | IC50 | - | 1.9 µM |
| CN(C)CCN1C(=O)c2ccc3[nH]c4ccc(O)cc4c3c2C1=O | ELISA / strand transfer / luminescence | - | IC50 | - | 27.28 µM |
| CC(=O)Oc1ccc(/C=C/C(=O)Nc2cccc3c(S(=O)(=O)NCCc4ccccc4)cccc23)cc1OC(C)=O | - | - | IC50 | - | 11.9 µg/mL |
| O=S(=O)(O)Oc1cc2c(ccn2S(=O)(=O)O)cc1O | - | - | IC50 | - | 116 µM |
| NC(=O)c1cc(S(=O)(=O)Nc2nc3ccccc3c(=O)[nH]2)c(SCOc2ccccc2)cc1Cl | 3′ processing | - | IC50 | - | >100 µM |
| CN(C(=O)/C=C(\O)C(=O)O)C(c1ccc(Cl)cc1)c1ccc(Cl)cc1 | strand transfer | - | IC50 | - | <70 µM |
| [N-]=[N+]=NCc1cccc(C(=O)CC(=O)C(=O)O)c1 | 3′ processing | - | IC50 | - | 43.6 µM |
| CCOC(=O)C(Cc1ccccc1)c1ccc(N2C(=O)C(c3ccc(C(=O)O)o3)=C(c3ccc(C(=O)O)o3)C2=O)cc1 | strand transfer | - | IC50 | - | 9 µM |
| Oc1ccc(/C=C/c2ccc(O)c(O)c2)cc1O | strand transfer | - | IC50 | - | 1 µM |
| CN(C)CCN1C(=O)c2ccc3c(c2C1=O)c1cc(O)ccc1n3C | ELISA / strand transfer / luminescence | - | IC50 | - | 5.93 µM |
| O=C(/C=C/c1ccc(O)c(O)c1)OCCc1ccccc1N=C=S | 3′ processing | - | IC50 | C65S | 7 µM |
| O=C1/C(=C/c2cc(O)c(O)c(O)c2)CNC/C1=C\c1cc(O)c(O)c(O)c1 | disintegration | - | IC50 | - | 0.5 µM |
| CN(C)CCN1C(=O)c2ccc3[nH]c4cc(O)c(O)cc4c3c2C1=O | ELISA / strand transfer / luminescence | - | IC50 | - | 17.37 µM |
| CC(=O)Oc1ccc(/C=C/C(=O)Nc2cccc3c(S(=O)(=O)NCc4ccccc4)cccc23)cc1OC(C)=O | - | - | IC50 | - | >100 µg/mL |
| Cc1ncnn1-c1cc(F)ccc1CNC(=O)c1nc2n(c(=O)c1O)CCCOC21CCN(C(=O)OCc2ccccc2)CC1 | binding / radiometric | - | Ki | - | 0.003–0.05 µM |
| O=CCCc1ccc(C2=C(c3ccc(CCC=O)o3)C(=O)N(Cc3ccccc3)C2=O)o1 | 3′ processing | - | IC50 | - | 29 µM |
| COc1cc2c(c(O)c1O)C1(C)Oc3c(O)c(OC)cc(C=O)c3C(C)(O1)C2=O | strand transfer | - | IC50 | - | 2.5 µM |
| O=C1/C(=C/c2ccc(O)c(O)c2)CN(Cc2ccccc2)C/C1=C\c1ccc(O)c(O)c1 | strand transfer | - | IC50 | - | 2.2 µM |
| COc1cccc(-c2cn3ccn(Cc4cccc(Cl)c4)c(=O)c3c(O)c2=O)c1 | ELISA | - | IC50 | - | 0.01–0.1 µM |
| O=C(CCCC[C@@H]1SC[C@@H]2NC(=O)N[C@@H]21)NCc1cn(Cc2ccc(C(=O)c3cccc(/C(O)=C/C(=O)C(=O)O)c3)cc2)nn1 | strand transfer | - | IC50 | - | 40.7 µM |
| CCCC(O)CCCCCCCc1cc(O)cc(O)c1 | strand transfer | - | IC50 | - | >100 µM |
| Cc1c2c(c3c([nH]c4ccccc43)c1C)C(=O)N(CCN(C)C)C2=O | ELISA / strand transfer / luminescence | - | IC50 | - | 16.94 µM |
| COC(=O)c1cn(Cc2ccc(Cl)c(Cl)c2)c(=O)c2c(O)c(=O)ccn12 | ELISA | - | IC50 | - | 0.01–0.1 µM |
| N#C/C(=C\c1ccc(O)c(O)c1)C(=O)NC1CCC(CC2CCC(NC(=O)/C(C#N)=C/c3ccc(O)c(O)c3)CC2)CC1 | 3′ processing / substrate cleavage | - | IC50 | - | 5–10 µM |
| CC(=O)Nc1cn2ccn(Cc3ccc(F)cc3)c(=O)c2c(O)c1=O | ELISA | - | IC50 | - | 0.01–0.1 µM |
| Cn1cc(C(=O)O)c(=O)c2cc(N)c(N3CCN(c4ccccn4)CC3)cc21 | strand transfer | - | IC50 | - | 75 µM |
| Cc1cc2c(c3c1[nH]c1ccc(O)cc13)C(=O)N(CCN(C)C)C2=O | ELISA / strand transfer / luminescence | - | IC50 | - | 7.94 µM |
| CN(Cc1ccc(F)c(Br)c1)C(=O)/C=C(\O)C(=O)O | strand transfer | - | IC50 | - | <70 µM |
| CCOC(=O)C(=O)N1CCC2(C1)OCCn1c2nc(C(=O)NCc2ccc(F)cc2-n2ncnc2C)c(O)c1=O | binding / radiometric | - | Ki | - | 0.003–0.05 µM |
| COc1ccc(/C=C/C(=O)OCCc2ccc(N=C=S)cc2)cc1OC | 3′ processing | - | IC50 | C56S | >100 µM |
| CC(C)(C)COC(=O)c1cn2ccn(Cc3cccc(Cl)c3)c(=O)c2c(O)c1=O | ELISA | - | IC50 | - | 0.01–0.1 µM |
| Cc1cc(S(=O)(=O)/[NH+]=C2/N=C3C=C(c4ccccc4)SC3C(=O)N2Cc2ccccc2)c(S)cc1Cl | 3′ processing | - | IC50 | - | 9 µM |
| O=C(O)CC1C/C(=C\c2cc(O)c(O)c(O)c2)C(=O)/C(=C/c2cc(O)c(O)c(O)c2)C1 | strand transfer | - | IC50 | - | 0.2 µM |
| O=C(/C=C/c1ccc(O)c(O)c1)OCCc1ccccc1 | 3′ processing | - | IC50 | C65S | 11 µM |
| CCOC(=O)/C(O)=C(\C(=O)OCC)c1ccccc1 | strand transfer | - | IC50 | - | >1000 µM |
| Cn1cc2c(c(O)c1=O)C(=O)N(Cc1ccc(Cl)c(Cl)c1)CC2 | ELISA | - | IC50 | - | <0.01 µM |
| COC(=O)C(CCCCNC(=O)c1ccc(O)c(O)c1)NC(=O)c1ccc(O)c(O)c1 | 3′ processing | - | IC50 | - | >10 µM |
| CN(C)CCCNC(=O)c1ccc2nc(-c3ccc4nc(-c5ccc(OCCCCCCCOc6ccc(-c7nc8ccc(-c9nc%10ccc(C(=O)NCCCN(C)C)cc%10[nH]9)cc8[nH]7)cc6)cc5)[nH]c4c3)[nH]c2c1 | strand transfer | - | IC50 | - | 0.09 µM |
| O=C(/C=C(\O)C(=O)O)NCc1cc(F)cc(F)c1 | strand transfer | - | IC50 | - | <70 µM |
| O=C(/C=C/c1ccc(O)c(O)c1)Nc1cccc2c(S(=O)(=O)Nc3cccc([N+](=O)[O-])c3)cccc12 | - | - | IC50 | - | 19.3 µg/mL |
| O=C(O)c1cc(-c2cccn2Cc2ccc(F)cc2)on1 | strand transfer | - | IC50 | - | 475 µM |
| Cc1ccccc1NS(=O)(=O)c1cccc2c(NC(=O)/C=C/c3ccc(O)c(O)c3)cccc12 | - | - | IC50 | - | 20.4 µg/mL |
| COC(=O)C(CCCNC(=O)c1ccc(O)c(O)c1)NC(=O)c1ccc(O)c(O)c1 | 3′ processing | - | IC50 | - | >10 µM |
| CNC(=O)NC[C@H]1O[C@@H](n2cnc3c(NC(=O)Nc4ccccc4)ncnc32)[C@H](O[Si](C)(C)C(C)(C)C)[C@@H]1CC(=O)N(C)OC | strand transfer | NL4-3 | IC50 | - | >10 µM |
| COC(=O)/C(O)=C/C(=O)/C=C(\O)c1ccccc1OC | strand transfer | - | IC50 | - | 240 µM |
| O=C(NCc1ccc(F)cc1)C1C(=O)N(O)C(=O)c2ccccc21 | ELISA / strand transfer | - | IC50 | - | 0.099 µM |
| Cn1cc2c(c(O)c1=O)C(=O)N(Cc1cccc(Cl)c1)CC2 | ELISA | - | IC50 | - | 0.01–0.1 µM |
| OC(/C=C/c1ccc(Cl)c(Cl)c1)/C=C/c1ccc(Cl)c(Cl)c1 | strand transfer | - | IC50 | - | >100 µM |
| O=C(NCCCC[C@H](NC(=O)c1cc(O)c(O)c(O)c1)C(=O)O)c1cc(O)c(O)c(O)c1 | 3′ processing | - | IC50 | - | 2.25 µM |
| CC(C)CNC(=O)c1cn2ccn(Cc3cccc(Cl)c3)c(=O)c2c(O)c1=O | ELISA | - | IC50 | - | 0.01–0.1 µM |
| CC(=O)Oc1ccc(/C=C/C(=O)Nc2cccc3c(S(=O)(=O)Nc4ccccc4)cccc23)cc1OC(C)=O | - | - | IC50 | - | >100 µg/mL |
| Cc1nnc(C(=O)N2CCC3(CC2)NCCn2c3nc(C(=O)NCc3ccc(F)cc3)c(O)c2=O)o1 | binding / radiometric | - | Ki | - | 0.003–0.05 µM |
| CCOC(=O)C1C/C(=C\c2cc(O)c(O)c(O)c2)C(=O)/C(=C/c2cc(O)c(O)c(O)c2)C1 | 3′ processing | - | IC50 | - | 0.2 µM |
| Cc1nnc(C(=O)N2CCC3(C2)OCCn2c3nc(C(=O)NCc3ccc(F)cc3-n3ncnc3C)c(O)c2=O)o1 | binding / radiometric | - | Ki | - | 0.003–0.05 µM |
| Cc1ccccc1CNC(=O)/C=C(\O)C(=O)O | strand transfer | - | IC50 | - | ~70 µM |
| O=C(/C=C/c1ccc(O)c(O)c1)Nc1cccc2c(S(=O)(=O)Nc3ccccc3)cccc12 | - | - | IC50 | - | 12.2 µg/mL |
| O=C(/C=C/c1ccc(O)c(O)c1)NCCCC[C@H](NC(=O)/C=C/c1ccc(O)c(O)c1)C(=O)O | 3′ processing | - | IC50 | - | <10 µM |
| [N-]=[N+]=NC[C@H]1O[C@@H](n2cnc3c(NC(=O)Nc4ccccc4)ncnc32)[C@@H]2OC(=O)C[C@@H]21 | strand transfer | NL4-3 | IC50 | - | >10 µM |
| Cc1cc(S(=O)(=O)Nc2nc(=O)c3ccccc3n2C)c(SCOc2ccccc2)cc1Cl | 3′ processing | - | IC50 | - | >100 µM |
| Cc1cn([C@H]2C[C@H](O)[C@@H](COP(=O)(O)O[C@H]3[C@H](n4cnc5c(N)ncnc54)CO[C@@H]3COP(=O)(O)O)O2)c(=O)nc1N | strand transfer | - | IC50 | - | 50 µM |
| N#C/C(=C\c1ccc(O)c(O)c1)C(=O)NCCCCc1ccccc1 | strand transfer | - | IC50 | - | 10–100 µM |
| CC(=O)Oc1ccc(/C=C/C(=O)Nc2cccc3c(S(=O)(=O)NCCc4ccc(Cl)cc4)cccc23)cc1OC(C)=O | - | - | IC50 | - | >100 µg/mL |
| COC(=O)C(CCNC(=O)/C=C/c1cc(O)c(O)c(O)c1)NC(=O)/C=C/c1cc(O)c(O)c(O)c1 | 3′ processing | - | IC50 | - | 0.44 µM |
| N#C/C(=C\c1cc(O)c(O)c(O)c1)C(=O)NCCCNC(=O)/C(C#N)=C/c1cc(O)c(O)c(O)c1 | 3′ processing / substrate cleavage | - | IC50 | - | 0.4 µM |